Patent US20230332126

How the values were obtained:
[1] = system: SNAP23 substrate (SEQ ID NO: 24)
[2] = system: SNAP25 substrate (SEQ ID NO: 25)
[3] = system: full-length human recombinant SNAP23 protein (23 kDa)

wild type BoNT/A light chain (SEQ ID NO: 1)
Km (SNAP23) [1]: und.
Vmax (SNAP23) [1]: und.
kcat (SNAP23) [1]: und.
kcat/Km (SNAP23) [1]: und.
Km (SNAP25) [2]: 3.4 µM
Vmax (SNAP25) [2]: 0.52 mP·µM·s^-1
kcat (SNAP25) [2]: 52 s⁻¹
kcat/Km (SNAP25) [2]: 15 µM⁻¹ s⁻¹
in vitro cleavage, anti-SNAP23 Western blot (400 nM, 37° C., 1 hour) [3]: The untreated, wtLC/A, and wtLC/E lanes provided negative controls
